Entries after “also recorded” stand apart in the source; their conditions may differ.
Tests used:
[1] = test system: soil microbial consortium (SM); test: Biodegradation of fluorinated amino acids by growing and resting cells of soil bacteria; assay type: cell-based, garden soil bacteria; conditions: 48 h; for degree of amino acid defluorination (rank order): comparison of relative 19F NMR resonance heights
[2] = test system: cell-free extract of the microbial consortium; test: Defluorinating activity in cell-free extract of the soil microbial consortium; assay type: biochemical, garden soil bacteria; conditions: for fluoride release in cell-free extract of soil consortium: 0.2 mg substrate in 1 mL cell-free extract (20 mM HEPES, pH 7.0), 6 h, 19F NMR, boiled extract as control

| Structure (SMILES) | other fluorometabolites from amino acid degradation by soil microbes ([1]; 19F NMR) | degree of amino acid defluorination (rank order) [1] | fluoride release in cell-free extract of soil consortium [2] | degradation of amino acid by soil microbes ([1]; 19F NMR, only the fluoride resonance observed) | product of defluorination in cell-free extract of soil consortium ([2]; MfeGly with active vs boiled cell-free extract, GC-MS after silylation) |
| --- | --- | --- | --- | --- | --- |
| N[C@@H](CC(F)F)C(=O)O [DfeGly, (2S)-4,4-difluoroethylglycine] | other fluorometabolites produced | MfeGly > DfeGly > TfeGly | a small fluoride signal was observed; also recorded: little or no fluoride release | – | – |
| N[C@@H](CCF)C(=O)O [MfeGly, (2S)-4-monofluoroethylglycine] | – | MfeGly > DfeGly > TfeGly | readily detected | completely degraded | homoserine |
| N[C@@H](CC(F)(F)F)C(=O)O [TfeGly, (2S)-4,4,4-trifluoroethylglycine] | other fluorometabolites produced | MfeGly > DfeGly > TfeGly | not defluorinated; also recorded: little or no fluoride release | – | – |
